Anti-infective test results gathered from many reports (values: NIAID ChemDB through PubChem).

Common to all: growth or infection tests; species: Candida albicans

Lines come from different laboratories, so protocols vary. MIC50, MIC90 and the like: level of inhibition, or share of isolates inhibited. An empty or dashed field is not shown.

structure	setting	strain or isolate	read by	read-out	value
CCCCCOC[n+]1cccc(NCn2nnc3ccccc32)c1	-	ATCC 10231	-	MBC	>1383 µM
C[C@H]1[C@H](O)[C@@H](C)/C=C/C=C/C=C/C=C/C=C/C=C/C=C/[C@H](O[C@@H]2O[C@H](C)[C@@H](O)[C@H](N)[C@@H]2O)C[C@@H]2O[C@](O)(C[C@@H](O)C[C@@H](O)CC[C@H](O)[C@@H](O)C[C@@H](O)CC(=O)O[C@H]1C)C[C@H](O)[C@H]2C(=O)O	-	-	broth dilution / resazurin	MIC	0.98 µg/mL
CNc1ccc(C(=O)CC(O)CCC(C)C2OC(=O)CC(O)CC(=O)CC(O)CC(O)CC(O)CC(O)CC3(O)CC(O)C(C(=O)N4CCN(C)CC4)C(CC(O[C@@H]4O[C@H](C)[C@@H](O)[C@H](NC(=O)CN5CCN(CCO)CC5)[C@@H]4O)/C=C/C=C/C=C/C=C\C=C/C=C/C=C/C2C)O3)cc1	-	200	-	MIC	0.06 µg/mL
O=C1OC(c2ccc(Oc3ccccc3)cc2)=C/C1=C\c1cccs1	-	-	-	MIC	50 µg/mL
CC1=C(C)CN(c2ccc(NC(=O)OCc3ccccc3)cc2)OC1	-	-	broth dilution	MIC	200 µg/mL
CN1CCN(c2n[nH]c(N3C(=O)CS[C@@H]3c3ccc4c(c3)OCO4)n2)CC1	-	159.95	broth dilution	MIC80	0.79 µg/mL
COC(=O)Nc1ccc(N2CC(C)=C(C)CO2)cc1	-	-	broth dilution	MIC	100 µg/mL
Nc1ccccc1C(=O)Nc1ccc(F)cc1	-	ATCC 44859	-	MIC	>1000 µM
Oc1cc2ccccc2cc1-c1n[nH]c(=S)n1Cc1ccccc1	-	ATCC 2091	-	MIC	125 µg/mL
CCCCCCCCCCOC[n+]1cccc(NCn2nnc3ccccc32)c1	-	ATCC 10231	-	MBC	290 µM
CN(C)CCNC(=O)c1ccc(-c2ccc(-c3ccc(C(=O)NCCN(C)C)cc3)o2)cc1	-	A39	-	MIC80	>100 µg/mL
CCC(C)CC(C)CCCCCCCCC(=O)N[C@H]1C[C@@H](O)[C@H](NCCN)NC(=O)[C@@H]2[C@@H](O)CCN2C(=O)[C@H]([C@H](O)CCN)NC(=O)[C@H]([C@H](O)[C@@H](O)c2ccc(O)cc2)NC(=O)[C@@H]2C[C@@H](O)CN2C(=O)[C@H]([C@@H](C)O)NC1=O	-	8 strains	-	Geometric mean MIC	0.5 µg/mL
N=C(N)c1ccc2nc(-c3ccc(-c4nc5ccc(C(=N)N)cc5[nH]4)[nH]3)[nH]c2c1	-	Isolate 1 (strain 2-76)	-	MFC	0.78 µg/mL
CNc1ccc(C(=O)CC(O)CCC(C)C2OC(=O)CC(O)CC(=O)CC(O)CC(O)CC(O)CC(O)CC3(O)CC(O)C(C(=O)N4CCN(CCO)CC4)C(CC(O[C@@H]4O[C@H](C)[C@@H](O)[C@H](NC(=O)CN5CCN(CCO)CC5)[C@@H]4O)/C=C/C=C/C=C/C=C\C=C/C=C/C=C/C2C)O3)cc1	-	200	-	MIC	0.03 µg/mL
O=c1c2cc(Cl)ccc2nnn1-c1ccccc1	-	ATCC 44859	-	MIC	>1000 µM
CCOC(=O)Nc1ccc2c(c1)nc(-c1ccccc1)n2[O-]	-	-	broth dilution	MIC	200 µg/mL
N/C(=N\O)c1ccc(OCCCCCOc2ccc(/C(N)=N/O)cc2)cc1	-	A39	-	MIC80	>100 µg/mL
CC1C(=O)CC(c2ccccc2)N(OCCc2nc3ncccc3[nH]2)C1c1ccccc1	-	51 (NCIM-C27)	-	MIC	50 µg/mL
C[C@H]1[C@H](O)[C@@H](C)/C=C/C=C/C=C/C=C/C=C/C=C/C=C/[C@H](O[C@@H]2O[C@H](C)[C@@H](O)[C@H](N)[C@@H]2O)C[C@@H]2O[C@](O)(C[C@@H](O)C[C@@H](O)CC[C@H](O)[C@@H](O)C[C@@H](O)CC(=O)O[C@H]1C)C[C@H](O)[C@H]2C(=O)O	-	ATCC64553	-	MIC	0.125 µg/mL
COC(=O)c1c(C)oc2cc(C(=O)C(Br)Br)c(O)c(Br)c12	-	ATCC 90028	-	MIC	100 µg/mL
CNc1ccc(C(=O)CC(O)CCC(C)C2OC(=O)CC(O)CC(=O)CC(O)CC(O)CC(O)CC(O)CC3(O)CC(O)C(C(=O)N4CCN(CCO)CC4)C(CC(O[C@@H]4O[C@H](C)[C@@H](O)[C@H](NC(=O)CCN5CCCCC5)[C@@H]4O)/C=C/C=C/C=C/C=C\C=C/C=C/C=C/C2C)O3)cc1	-	200	-	MIC	0.03 µg/mL
COc1ccc(C2C(C)C(=O)C(C)C(c3ccc(OC)cc3)N2OCCc2nc3ncccc3[nH]2)cc1	-	51 (NCIM-C27)	-	MIC	50 µg/mL
Cc1ccc([C@H]2SCC(=O)N2c2nc(N3CCN(C)CC3)n[nH]2)cc1	-	A39	broth dilution	MIC	10 µg/mL
CNc1ccc(C(=O)CC(O)CCC(C)C2OC(=O)CC(O)CC(=O)CC(O)CC(O)CC(O)CC(O)CC3(O)CC(O)C(C(=O)N4CCN(CCO)CC4)C(CC(O[C@@H]4O[C@H](C)[C@@H](O)[C@H](NC(=O)CN5CCN(C)CC5)[C@@H]4O)/C=C/C=C/C=C/C=C\C=C/C=C/C=C/C2C)O3)cc1	-	200	-	MIC	0.03 µg/mL
COc1ccc([C@H]2SCC(=O)N2c2nc(N3CCN(C)CC3)n[nH]2)cc1OC	-	A39	broth dilution	MIC	10 µg/mL
CCC1N=C(N)N=C(N)N1OCc1ccc(Cl)c(Cl)c1	-	-	-	MIC	>250 µg/mL
CCCCCCCCCCOC[n+]1cccc(NCn2cnc3ccccc32)c1	-	ATCC 10231	-	MIC	290 µM
CNc1ccc(C(=O)CC(O)CCC(C)C2OC(=O)CC(O)CC(=O)CC(O)CC(O)CC(O)CC(O)CC3(O)CC(O)C(C(=O)NCCN(C)C)C(CC(O[C@@H]4O[C@H](C)[C@@H](O)[C@H](NC(=O)CN(C)C)[C@@H]4O)/C=C/C=C/C=C/C=C\C=C/C=C/C=C/C2C)O3)cc1	-	73	-	MIC	0.015 µg/mL
CCNC(=S)NNC(=O)c1cc2ccccc2cc1O	-	ATCC 2091	-	MIC	250 µg/mL
O=C1OC(c2ccc(Oc3ccccc3)cc2)=C/C1=C\c1ccc2c(c1)OCO2	-	-	-	MIC	>100 µg/mL
N=C(N)c1ccc(OCCCC(O)COc2ccc(C(=N)N)cc2)cc1	-	102.96	-	MIC80	12.5 µg/mL
CCCCCCCON1C(N)=NC(N)=NC1(C)C	-	-	-	MIC	>60 µg/mL
COC(=O)Nc1ccc(OCC2CC(c3ccccc3)=NO2)cc1	-	-	broth dilution	MIC	200 µg/mL
CC1(C)S[C@@H]2[C@H](NC(=O)[C@H](N)c3ccccc3)C(=O)N2[C@H]1C(=O)O	-	Clinical Isolate 092251	broth dilution	MIC	4.7 µg/mL
Nc1ccc(Cl)cc1C(=O)Nc1ccccc1	-	ATCC 44859	-	MIC	500 µM
COC(=O)c1cc2ccccc2cc1-c1nn(C(C)=O)c(=S)n1C1CCCCC1	-	ATCC 2091	-	MIC	250 µg/mL
Nc1ccccc1C(=O)Nc1ccc(Br)cc1	-	ATCC 44859	-	MIC	>1000 µM
CCn1c(-c2cc3ccccc3cc2O)n[nH]c1=S	-	ATCC 2091	-	MIC	250 µg/mL
CCCCCCCCCCOC[n+]1cccc(NCNc2ccc[n+](COCCCCCCCCCC)c2)c1	-	ATCC 10231	-	MBC	13 µM
C[C@H]1[C@H](O)[C@@H](C)/C=C/C=C/C=C/C=C/C=C/C=C/C=C/[C@H](O[C@@H]2O[C@H](C)[C@@H](O)[C@H](N)[C@@H]2O)C[C@@H]2O[C@](O)(C[C@@H](O)C[C@@H](O)CC[C@H](O)[C@@H](O)C[C@@H](O)CC(=O)O[C@H]1C)C[C@H](O)[C@H]2C(=O)O	-	40 strains	-	MIC50	0.25 µg/mL
O=C1NC(c2ccc(Oc3ccccc3)cc2)=C/C1=C\c1cccc(O)c1	-	-	-	MIC	>100 µg/mL
CC(N1CCN(c2ccc(-n3cnnn3)cc2)C1=O)[C@](O)(Cn1cncn1)c1ccc(F)cc1F	-	CA383	-	MIC	4 µg/mL
O=C1NC(c2ccc(Oc3ccccc3)cc2)=C/C1=C\c1ccccc1O	-	-	-	MIC	>100 µg/mL
Clc1ccc(C(Cn2ccnc2)OCc2csc3c(Cl)cccc23)c(Cl)c1	48 h	63 isolates	-	MIC	4 µg/mL
C[C@@H](N1CCN(c2ccc(-n3cnnn3)cc2)C1=O)[C@](O)(Cn1cncn1)c1ccc(F)cc1F	-	TA	-	MIC	1 µg/mL
CC[C@@H]([C@H](C)O)n1ncn(-c2ccc(N3CCN(c4ccc(OC[C@@H]5CO[C@@](Cn6cncn6)(c6ccc(F)cc6F)C5)cc4)CC3)cc2)c1=O	-	10 strains (fluconazole-resistant)	-	Geometric mean MIC	0.2 µg/mL
COC(=O)Nc1cccc(OCC2CC(c3ccc([N+](=O)[O-])cc3)=NO2)c1	-	-	broth dilution	MIC	320 µg/mL
NC1=NC2(CCCCC2)N(OCc2ccc(Cl)c(Cl)c2)C(N)=N1	-	-	-	MIC	250 µg/mL
CC1C(=O)C(C)C(c2ccccc2)N(OCCc2nc3ncccc3[nH]2)C1c1ccccc1	-	NCIM-C27	-	MIC	50 µg/mL
N=C(N)c1ccc2nc(CCCc3nc4ccc(C(=N)N)cc4[nH]3)[nH]c2c1	-	A39	-	MFC	>100 µg/mL

3 of the rows above, restated:

structure,setting,strain or isolate,read by,read-out,value
CNc1ccc(C(=O)CC(O)CCC(C)C2OC(=O)CC(O)CC(=O)CC(O)CC(O)CC(O)CC(O)CC3(O)CC(O)C(C(=O)N4CCN(CCO)CC4)C(CC(O[C@@H]4O[C@H](C)[C@@H](O)[C@H](NC(=O)CCN5CCCCC5)[C@@H]4O)/C=C/C=C/C=C/C=C\C=C/C=C/C=C/C2C)O3)cc1,-,200,-,MIC,0.03 µg/mL
COc1ccc([C@H]2SCC(=O)N2c2nc(N3CCN(C)CC3)n[nH]2)cc1OC,-,A39,broth dilution,MIC,10 µg/mL
CC1=C(C)CN(c2ccc(NC(=O)OCc3ccccc3)cc2)OC1,-,-,broth dilution,MIC,200 µg/mL